Results from patent publication US20100291561.
The exact form of at least one protein or probe is not confirmed.

The chains behind the UniProt entries cited, without tags or fusion partners. Residues count along the entry.
UniProt P00642, 2-277: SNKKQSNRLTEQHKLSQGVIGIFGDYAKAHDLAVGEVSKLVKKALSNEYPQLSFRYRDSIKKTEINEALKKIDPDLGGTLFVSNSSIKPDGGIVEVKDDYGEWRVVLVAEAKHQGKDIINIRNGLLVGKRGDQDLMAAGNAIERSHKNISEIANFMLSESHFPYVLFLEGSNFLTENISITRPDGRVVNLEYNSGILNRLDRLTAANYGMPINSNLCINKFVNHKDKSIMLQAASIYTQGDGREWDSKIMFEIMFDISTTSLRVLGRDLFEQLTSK

Assays:
[1] = target: EcoRI restriction endonuclease (UniProt P00642); assay: EMSA; conditions: 1x NEBuffer 1, 20 min room temperature, 300 U EcoRI; product about half ssDNA and half dsDNA; purified recombinant protein; protein details: New England …; single-stranded DNA
[2] = target: EcoRI restriction endonuclease (UniProt P00642); assay: inhibition of the protein; conditions: purified recombinant protein, protein details: New England Biolabs, single-stranded DNA

Sequence | binding result [1] | functional effect of the aptamer ([2]; strong inhibitor of EcoRI cleavage of MBL, 37 C, 4 U EcoRI, dose not given here) | functional effect of the aptamer ([2]; about 40 ng aptamer per 4 U EcoRI inhibits MBL cleavage (incompletely), 1.5x EcoRI NEBuffer, 30 C, relieved by linker trigger strand)
CAAGGCCTCTCCTGATCCGACGAGCAAGTAGCTCCAAGACGAGTTCAACCCCAGAATCAGGTCGGGAGCTGAAGCTGCTT [aptamer 3 (full length, asymmetric PCR product)] | binds | active | –
CCGACGAGCAAGTAGCTCCAAGACGAGTTCAACCCCAGAATCAGGTCGG [aptamer 3_ADJ_L] | – | – | active
